Measured values from several laboratories, pooled; numbers as filed in NIAID ChemDB.

Common to all: growth or infection tests; organism: Candida albicans; measure: MIC100

A number after MIC or MFC names an inhibition level or a share of isolates.

SMILES,read by,setting,strain,result
CCCCCCn1cc[n+](COCCCCOC[n+]2ccn(CCCCCC)c2)c1,agar diffusion,-,ATCC 90028,10 µM
Cn1c(=O)ccc2c3sc(N4CCN(C(c5ccccc5)c5ccccc5)CC4)nc3ccc21,-,-,MTCC 183,200 µg/mL
C[C@H]1[C@H](O)[C@@H](C)/C=C/C=C/C=C/C=C/C=C/C=C/C=C/[C@H](O[C@@H]2O[C@H](C)[C@@H](O)[C@H](N)[C@@H]2O)C[C@@H]2O[C@](O)(C[C@@H](O)C[C@@H](O)CC[C@H](O)[C@@H](O)C[C@@H](O)CC(=O)O[C@H]1C)C[C@H](O)[C@H]2C(=O)O,broth dilution,-,n. 1r,2 µM
O=c1[nH]n(-c2ccccc2)c(=O)c2cc3c(cc12)[nH]c1cc2c(=O)[nH]n(-c4ccccc4)c(=O)c2cc13,agar,-,Clinical isolates,32 µg/mL
OC(Cn1cncn1)(Cn1cncn1)c1ccc(F)cc1F,-,-,MTCC 183,12.5 µg/mL
O=C(CCc1ccccc1)Nc1ccc(-c2nc3ccccc3s2)cc1,broth dilution,-,ATCC 10231,25 µg/mL
Cc1ccc(-c2nc3ccccc3c(=O)n2-c2ccc(C(=O)NN3C(=O)/C(=C/c4ccc(N(C)C)cc4)SC3c3ccc(F)cc3)cc2)cc1,-,-,MTCC 227,1000 µg/mL
O=C(Cc1ccc([N+](=O)[O-])cc1)Nc1ccc(-c2nc3ccccc3s2)cc1,broth dilution,-,ATCC 10231,25 µg/mL
CNCCN(C)c1ccc2[nH]c3cc4c(=O)[nH]n(-c5ccccc5)c(=O)c4cc3c2c1,agar,-,Clinical isolates,64 µg/mL
CCCCCCCCCn1cc[n+](COCCCCCOC[n+]2ccn(CCCCCCCCC)c2)c1,agar diffusion,-,ATCC 90028,8 µM
Cc1ccc(-c2nc3ccccc3c(=O)n2-c2ccc(C(=O)NN3C(=O)/C(=C/c4ccc(Br)cc4)SC3c3ccc(F)cc3)cc2)cc1,-,-,MTCC 227,1000 µg/mL
CSCC[C@H]1NC(=O)[C@H]2CCCN2C1=O,broth dilution,-,MTCC 277,64 µg/mL
Cc1ccc(-c2nc3ccccc3c(=O)n2-c2ccc(C(=O)NN3C(=O)/C(=C/c4ccccc4Br)SC3c3ccc(F)cc3)cc2)cc1,-,-,MTCC 227,1000 µg/mL
O=C(Nc1ccc(-c2nc3ccccc3s2)cc1)c1ccccc1,broth dilution,-,ATCC 10231,25 µg/mL
CC(C)C[C@@H]1NC(=O)[C@H](C(C)C)NC1=O,broth dilution,-,MTCC 277,32 µg/mL
C[C@H]1[C@H](O)[C@@H](C)/C=C/C=C/C=C/C=C/C=C/C=C/C=C/[C@H](O[C@@H]2O[C@H](C)[C@@H](O)[C@H](N)[C@@H]2O)C[C@@H]2O[C@](O)(C[C@@H](O)C[C@@H](O)CC[C@H](O)[C@@H](O)C[C@@H](O)CC(=O)O[C@H]1C)C[C@H](O)[C@H]2C(=O)O,broth dilution,clinical isolate,Clinical isolate,<0.3 µg/mL
CCCCCCCn1cc[n+](COCCCCCCOC[n+]2ccn(CCCCCCC)c2)c1,agar diffusion,-,ATCC 90028,5 µM
CN1CCN(c2nc3ccc4oc(=O)ccc4c3s2)CC1,-,-,MTCC 183,250 µg/mL
Cc1cc(O)c2c(c1)C(=O)c1cc(O)c(O)c(O)c1C2=O,visual reading,-,-,9–18 µM
O=c1[nH]n(-c2ccccc2)c(=O)c2cc3c(cc12)[nH]c1ccccc13,agar,-,Clinical isolates,64 µg/mL
Cc1ccc(-c2c3c(N)c4c(nc3nc3c2c(C)nn3-c2ccccc2)CCCCC4)cc1,broth dilution / absorbance,-,CCC 125,125 µg/mL
COc1ccc(CC(=O)Nc2ccc(Cc3nc4ccccc4s3)cc2)cc1,broth dilution,-,ATCC 10231,25 µg/mL
O=c1ccc2c(ccc3nc(N4CCN(c5ccccn5)CC4)sc32)o1,-,-,MTCC 183,200 µg/mL
Cc1ccc(-c2c3c(N)c4c(nc3nc3c2c(C)nn3-c2ccccc2)CCCC4)cc1,broth dilution / absorbance,-,ATCC 10231,31.2 µg/mL
COc1ccc(N2CCN(c3nc4ccc5c(ccc(=O)n5C)c4s3)CC2)cc1,-,-,MTCC 183,25 µg/mL
CCCCCCCCn1cc[n+](COCCOC[n+]2ccn(CCCCCCCC)c2)c1,agar diffusion,-,ATCC 90028,5 µM
O=c1ccc2c(ccc3nc(N4CCN(c5ccccc5)CC4)sc32)o1,-,-,MTCC 183,500 µg/mL
O=C(O)c1cc2[nH]c3cc4c(=O)[nH]n(-c5ccccc5)c(=O)c4cc3c2cc1C(=O)O,agar,-,Clinical isolates,512 µg/mL
COc1ccc(N2CCN(c3nc4ccc5oc(=O)ccc5c4s3)CC2)cc1,-,-,MTCC 183,25 µg/mL
Cc1ccc(-c2nc3ccccc3c(=O)n2-c2ccc(C(=O)NN3C(=O)/C(=C/c4ccccc4Cl)SC3c3ccc(F)cc3)cc2)cc1,-,-,MTCC 227,100 µg/mL
CCN1CCN(c2nc3ccc4c(ccc(=O)n4C)c3s2)CC1,-,-,MTCC 183,250 µg/mL
Cc1ccc(-c2nc3ccccc3c(=O)n2-c2ccc(C(=O)NN3C(=O)/C(=C/c4ccccc4O)SC3c3ccc(F)cc3)cc2)cc1,-,-,MTCC 227,1000 µg/mL

The last 3 rows once more:

{"SMILES": "Cc1ccc(-c2nc3ccccc3c(=O)n2-c2ccc(C(=O)NN3C(=O)/C(=C/c4ccccc4Cl)SC3c3ccc(F)cc3)cc2)cc1", "strain": "MTCC 227", "result": "100 µg/mL"}
{"SMILES": "CCN1CCN(c2nc3ccc4c(ccc(=O)n4C)c3s2)CC1", "strain": "MTCC 183", "result": "250 µg/mL"}
{"SMILES": "Cc1ccc(-c2nc3ccccc3c(=O)n2-c2ccc(C(=O)NN3C(=O)/C(=C/c4ccccc4O)SC3c3ccc(F)cc3)cc2)cc1", "strain": "MTCC 227", "result": "1000 µg/mL"}

a–b is a range or a potency band. Neighbouring rows are from separate reports. An empty or dashed field is not shown.